This is an account of results in article doi:10.1101/809392.

The subject of this series is UmuDAb full-length. Kind of series: EMSA. The note with it: 25 nM DNA, 100 ng salmon sperm DNA. On the technique in general: A gel shift assay detects complexes by their altered migration in electrophoresis.

The exact form of at least one protein or probe is not confirmed.

Take “TGTCGGGAGATAGCATACCAAAGCTGTGAAAAAACACTTATAGATAACTTTGTGGATAACTCAAAAAACAAACACTTGAGTGAATTTAAATTTAGTGAAGAAATAATTTGTTTAATATTCATACATAGGAAATATGAATAGATTATGACATTTAAGAACAATAAATAGATAATAAAAATACCTGAAAATTCAAAGATTAATAAAATGCAACAAAACA (double strand) [bfmR promoter probe]”: the binding result is reported as “binds”.
